Molecular target: HIV-1IIIB gp120/gp41 stably expressed on CHO cells (HIV-1 IIIB)
Experiment: cell-based or functional assay

## CD4-gamma2 chimeric heavy chain homodimer (Fc fusion)
  Relative Potency (mass), relative to sCD4: 2.3 fold
  Relative Potency (molarity), relative to sCD4: 5 fold

— patent publication US20030211470A1
